Drawing on paper PMC10619443, “Structural snapshots of Mycobacterium tuberculosis enolase reveal dual mode of 2PG binding and its implication in enzyme catalysis” (IUCrJ, 2023), this text covers Km for one substance.

The subject of the data set is C=C(OP(=O)(O)O)C(=O)O. Description: purified protein. As to conditions: pH 7.5; 25.0 °C.

As usually defined, the Km is the concentration of substrate that gives half-maximal velocity. Turning to “MtEno (Mycobacterium tuberculosis H37Rv)”, the Michaelis constant (Km) was 495.7 ± 45.27 µM.
